# Measured values as given in patent publication US5874287, “Mutagenized DNA molecules encoding modified subunit a of Cholera-toxin” (dated 1999).
# Target: G protein alpha subunit of human erythrocyte membranes (human) (UniProt P63092)
# Details: scale: relative specific activity
substance,measurement,value
Commercial CTXA1 (native cholera toxin subunit A1) (enzyme),"SPECIFIC ACTIVITY FOR HEM G. PROTEIN (ADP-ribosyltransferase, relative)",1
